In PMC6379637 (2019) one finds IC50 data, which are given here for one compound.

Molecules are shown by their SMILES.

In the assay the target is A/H3N2 neuraminidase. The assay is classed as biochemical, influenza A/H3N2 virus.

In turn, `CC(=O)N[C@H]1[C@H]([C@H](O)[C@H](O)CO)OC(C(=O)O)=C[C@@H]1N=C(N)N` [Zanamivir, zanamivir hydrate] gave an IC50 of 1 nM.
